Reference: PubChem BioAssay AID504761 (Drosophila RNAi Screening Center, 2011)
In all, the deposit lists about 22,000 reagents; shown is an unselected part of those with a known target gene and a result. Over the whole deposit, 116 (0.52%) got an active call. 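Calls depend on retest data that are not deposited; infection was ranked per plate without normalising between plates; the unit of the infection score is not given.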 Entries without a mark were called inactive. Further read-outs or replicates are left out here. The record does not give: the amount of reagent, the time to read-out.

- Assay: 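Fly genes whose silencing reduces dengue virus type 2 infection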 (primary screen)
- Cells: D.Mel-2 cells from Drosophila
- Reagent: long dsRNA against Drosophila genes
- Treatment: infection with dengue virus type 2; dose and infection time not stated
- Measured: 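Per well on two replicate plates, imaging gave the percent of cells positive for viral envelope protein, ranked by infection, and a nuclear count of cells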
- Scale: infection score: higher = more virus-infected cells
- Hit rule: 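Low infection ranks in the two replicates (chance level up to 0.065) followed by a retest with a 1.5-fold or larger significant decrease, p below 0.05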
- Meaning of the calls: active = confirmed: knock-down lowers infection; inactive = not picked or not confirmed

kni (knirps) [DRSC23093]
- infection score, replicate 1: 1.94

kni (knirps) [DRSC29974]
- infection score, replicate 1: 35.4

sac (sterile affecting ciliogenesis) [DRSC12237]
- infection score, replicate 1: 2.43

sac (sterile affecting ciliogenesis) [DRSC27045]
- infection score, replicate 1: 4.36

CG33178 [DRSC19950]
- infection score, replicate 1: 4.47

rswl (roswell) [DRSC06923]
- infection score, replicate 1: 9.77

CG7907 [DRSC16339]
- infection score, replicate 1: 0.55

CG7907 [DRSC26041]
- infection score, replicate 1: 20.3

wash (washout) [DRSC06302]
- infection score, replicate 1: 10.5

eIF4E4 (eukaryotic translation initiation factor 4E4) [DRSC09701]
- infection score, replicate 1: 8.03

ng2 (new glue 2) [DRSC18803]
- infection score, replicate 1: 6.77

HP4 (Heterochromatin protein 4) [DRSC10958]
- infection score, replicate 1: 10.2

Bug22 (Basal body up regulated gene 22) [DRSC02842]
- infection score, replicate 1: 4.26

CG32191 [DRSC10522]
- infection score, replicate 1: 5.57

2 of these entries, set out differently:
| predicted target | amplicon | infection score, replicate 1 |
| --- | --- | --- |
| wash (washout) | DRSC06302 | 10.5 |
| eIF4E4 (eukaryotic translation initiation factor 4E4) | DRSC09701 | 8.03 |
